The subject of the test is Human immunodeficiency virus type 1 reverse transcriptase (Human immunodeficiency virus 1), Q72547 [L100I].

The text below walks through data of ChEMBL document CHEMBL1955737, “Diarylpyrimidine-dihydrobenzyloxopyrimidine hybrids: new, wide-spectrum anti-HIV-1 agents active at (sub)-nanomolar level” (J Med Chem, 2011).

SMILES strings stand for the structures.

Consider `Cc1cc(C)c(Nc2ccnc(Nc3ccc(C#N)cc3)n2)c(C)c1` [DAPIVIRINE], for which the ID50 worked out at 90 nM.
